Assay results: patent US20070004649A1, “Anti-influenza virus compound comprising biflavonoid-sialic acid glycoside” (The Kitasato Institute, priority 2003, published 2007)

Chains of the proteins cited; added tags and fusions are not shown.
UniProt P03468, whole entry: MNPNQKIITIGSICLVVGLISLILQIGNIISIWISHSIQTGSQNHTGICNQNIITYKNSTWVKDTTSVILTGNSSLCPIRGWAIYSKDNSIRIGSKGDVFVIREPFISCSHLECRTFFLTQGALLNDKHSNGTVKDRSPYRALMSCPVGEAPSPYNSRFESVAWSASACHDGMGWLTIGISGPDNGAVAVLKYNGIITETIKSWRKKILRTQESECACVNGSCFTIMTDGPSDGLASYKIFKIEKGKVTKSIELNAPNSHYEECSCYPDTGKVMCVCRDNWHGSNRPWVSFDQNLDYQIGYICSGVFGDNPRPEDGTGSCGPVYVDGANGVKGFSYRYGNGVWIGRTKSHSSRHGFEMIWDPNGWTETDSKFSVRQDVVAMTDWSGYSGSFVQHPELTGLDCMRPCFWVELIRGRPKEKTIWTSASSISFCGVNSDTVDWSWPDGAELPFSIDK

Target: A/PR/8/34 virus sialidase (Influenza A virus, UniProt P03468)
Experiment: Inhibitory activity against influenza A/PR/8/34 virus sialidase (4-MU-NeuAc substrate, HA vaccine as enzyme)
Format: biochemical, influenza virus A/PR/8/34 (H1N1 subtype)

## (R)-7″-O-(N-acetylneuraminyl)-7,4-di-O-methylamentoflavone [Gin-Neu-1-(R)]
  50% inhibitory concentration (IC50), A/PR/8/34 virus sialidase: 5 µg/mL
